Results of unrelated studies side by side (data: NIAID ChemDB).

Shared fields: tests in culture; organism: HIV-1; endpoint: EC50

Lines come from different laboratories, so protocols vary.

smiles	strain	cells	conditions	changes	method	result
Cc1ccnc2c1NC(=O)c1cccnc1N2C1CC1	NL4-3	CEM + CEM-SS	-	RT-A98G	XTT	0.2 µM
COc1ccc(S(=O)(=O)N(CC(C)C)C[C@@H](O)[C@H](Cc2ccccc2)NC(=O)O[C@H]2CCO[C@H]3OC[C@H](O)[C@H]32)cc1	NL4-3	MT-4	-	L10I I15V K20R L24I V32I M36I M46I L63P K70Q V82A I84V L89M	p24 / luminescence	0.046 µM
Cc1cn([C@H]2C[C@H](N=[N+]=[N-])[C@@H](CO)O2)c(=O)[nH]c1=O	IIIB/LAI	CEM	-	-	antigen	0.002 µM
Nc1ccn([C@H]2CC[C@@H](CO)O2)c(=O)n1	RTMC(181 184) (RT 67N 70R Y181C M184V T215F K219Q)	HT4 + HT4 LacZ-1	-	RT-D67N K70R Y181C M184V T215F K219Q	plaque count	0.95 µM
CC[C@@H](C)[C@H](C(=O)O)N1C[C@H](CN2CCC(c3cc(Cc4cccc(CN)c4)nn3CC)CC2)[C@@H](c2cccc(F)c2)C1	BaL	HeLa	-	-	β-galactosidase	<0.0037 µM
CNc1ccccc1S(=O)(=O)c1ccccc1[N+](=O)[O-]	IIIB	CEM + CEM-SS	-	-	XTT	1 µM
CN[C@H]1CO[C@@H]2OCC[C@H](OC(=O)N[C@@H](Cc3ccccc3)[C@H](O)CN(CC(C)C)S(=O)(=O)c3ccc4nc(NC5CC5)sc4c3)[C@@H]21	NL4-3	MT-4	-	-	p24 / luminescence	0.0042 µM
O=S(=O)(c1ccccc1)c1ccccc1	NSC667952-RS	CEM + CEM-SS	-	-	XTT	93.3 µM
Cc1occc1C(=S)Nc1ccc(Cl)c(/C=N/OC(C)(C)C)c1	IIIB	CEM + CEM-SS	-	-	XTT	0.1 µM
CC[C@H](C)[C@H](C(=O)O)N1C[C@H](CN2CCC(c3cc(Cc4ccc(OCc5ccccc5)cc4)nn3CC)CC2)[C@@H](c2cccc(F)c2)C1	BaL	HeLa	-	-	β-galactosidase	<0.0037 µM
CCCc1cc(=O)oc2c3c(c4c(c12)OC(C)(C)C=C4)O[C@H](C)[C@@H](C)[C@@H]3O	Oxathiin carboxanilide-resistant RT L100I	CEM + CEM-SS	-	RT-L100I	XTT	>27 µM
CO[P@](=O)(c1cc(C)cc(/C=C/C#N)c1)c1c(C(N)=O)[nH]c2ccc(Cl)c(F)c12	NL4-3	MT-4	-	Y181C	ELISA	0.0039 µM
Nc1nc(NC2CC2)c2ncn([C@H]3C=C[C@@H](CO)C3)c2n1	Recombinant	HeLa	-	RT-M41L S68N G112S M184V	luciferase	2.3 µM
COC(=O)N[C@H](C(=O)N[C@@H](Cc1ccccc1)[C@@H](O)CN(Cc1ccc(-c2ccccn2)cc1)NC(=O)[C@@H](NC(=O)OC)C(C)(C)C)C(C)(C)C	NL4-3	MT-4	-	-	p24 / luminescence	0.0027 µM
CNc1ccc(Cl)cc1S(=O)(=O)c1ccccc1[N+](=O)[O-]	E BPTU-resistant	CEM + CEM-SS	-	-	XTT	>61 µM
CC(C)CN(C[C@@H](O)[C@H](Cc1ccccc1)NC(=O)O[C@H]1CCO[C@H]2OCC[C@H]21)S(=O)(=O)c1ccc2nc(NC3CC3)sc2c1	NL4-3	MT-4	-	L10F M46I I54V V82A	p24 / luminescence	0.052 µM
CCn1nc(Cc2cccc(OC)c2)cc1C1CCN(C[C@H]2CN([C@@H](C(=O)O)C(C)(C)C)C[C@@H]2c2cccc(F)c2)CC1	BaL	HeLa	50% human serum	-	β-galactosidase	<0.033 µM
C/C=C/CSc1cc(NC(=S)c2ccsc2C)ccc1Cl	Diphenyl sulfone-resistant (RT-Y181C)	CEM + CEM-SS	-	RT-Y181C	cytopathic effect / XTT	>2 µM
N#Cc1cc2[nH]c3ccccc3c2n(-c2ccc([N+](=O)[O-])cc2)c1=O	NNRTI-resistant	HeLa	-	RT-K103N Y188L	luciferase	0.109 µM
CC(C)CN(C[C@@H](O)[C@H](Cc1cc(F)cc(F)c1)NC(=O)O[C@H]1CCO[C@H]2OCC[C@H]21)S(=O)(=O)c1ccc2nc(NC(C)C)sc2c1	NL4-3	MT-4	-	-	p24 / luminescence	0.0013 µM
CC(C)=CCN1c2cc(Cl)cc3[nH]c(=S)n(c23)C[C@@H]1C	-	MT-4	-	RT-L74V K101E	-	<0.4 µM
Cc1ccnc2c1NC(=O)c1cccnc1N2C1CC1	-	-	-	Y181C	RT activity / fluorescence	>67.5 µM
Cc1ccnc2c1NC(=O)c1cccnc1N2C1CC1	RTMC(181 184) (RT 67N K70R Y181C M184V T215F K219Q)	HT4 + HT4 LacZ-1	-	RT-D67N K70R Y181C M184V T215F K219Q	plaque count	4.6 µM
COC(=O)N[C@H](C(=O)N[C@@H](Cc1ccccc1)[C@@H](O)CN(Cc1ccc(-c2ccccn2)cc1)NC(=O)[C@@H](NC(=O)OC)C(C)(C)C)C(C)(C)C	NL4-3	MT-4	-	L10F K20T D30N K45I A71V V77I	p24 / luminescence	19 µM
Cc1cn([C@H]2C[C@H](N=[N+]=[N-])[C@@H](CO)O2)c(=O)[nH]c1=O	A036B (RT-WT)	HT4 + HT4-6C	-	-	plaque count	0.01 µM
Cc1occc1C(=S)Nc1ccc(Cl)c(/C=N/OC(C)(C)C)c1	SK1	CEM + CEM-SS	-	-	cytopathic effect / XTT	0.1 µM
Cc1cn([C@H]2C[C@H](N=[N+]=[N-])[C@@H](CO)O2)c(=O)[nH]c1=O	Clinical isolate	PBMC	-	KM018	ELISA	0.141 µM
CC(=O)N1CCC(C(=O)N(CCCN2CCC(Cc3ccc(C(N)=O)cc3)CC2)c2ccc(C)c(Cl)c2)CC1	X4 subtype B_1 recombinant	U87 (CD4+ CXCR4+) + U87	-	-	luciferase	>19 µM
Cc1ccnc2c1NC(=O)c1cccnc1N2C1CC1	A17	CEM + CEM-SS	-	Pyridinone-resistant (RT Y181C K103N)	cytopathic effect / XTT	>38 µM
CCOP(=O)(COc1ccc(C[C@H](NC(=O)O[C@H]2CO[C@H]3OCC[C@H]32)[C@H](O)CN(CC(C)C)S(=O)(=O)c2ccc(OC)cc2)cc1)OCC	IIIB	MT-2	-	D437N L441P	p24 / ELISA	0.008 µM
CC[C@H](C)[C@@H](C(=O)O)n1sc2ccccc2c1=O	ROJO	PBMC	-	-	p24 / RT activity	7.2 µM
Cc1cn([C@H]2C[C@H](N=[N+]=[N-])[C@@H](CO)O2)c(=O)[nH]c1=O	RF	CEM + CEM-SS	-	-	XTT	0.004 µM
CCc1c(Sc2ccccn2)n(COCc2ccccc2)c(=O)[nH]c1=O	UC10-resistant (RT Y181C K101E)	CEM + CEM-SS	-	RT-Y181C K101E	cytopathic effect / XTT	>5 µM
CCn1nc(Cc2ccc(OC)cc2)cc1C1CCN(C[C@H]2CN([C@@H](C(=O)O)C3CCCCC3)C[C@@H]2c2cccc(F)c2)CC1	BaL	HeLa	50% human serum	-	β-galactosidase	<0.033 µM
COC(=O)N[C@H](C(=O)N[C@@H](Cc1ccccc1)[C@@H](O)CN(Cc1ccc(-c2ccccn2)cc1)NC(=O)[C@@H](NC(=O)OC)C(C)(C)C)C(C)(C)C	IIIB	MT-2	-	K112M K113E V128I M200I H219P I401T R409K D437N L441P	p24 / ELISA	0.0033 µM
Cc1cc(S(N)(=O)=O)ccc1NC(=O)COc1ccc(Cl)cc1C(=O)c1cc(Cl)cc(C#N)c1	NNRTI-resistant (RT K101E)	MAGI	-	RT-K101E	β-galactosidase	0.00096 µM
CCCc1cc(=O)oc2c3c(c4c(c12)OC(C)(C)C=C4)O[C@@H](C)[C@H](C)[C@@H]3O	Diphenyl sulfone-resistant (RT-Y181C)	CEM + CEM-SS	-	RT-Y181C	XTT	0.08 µM
Cc1ccc(S(=O)(=O)N(CC(C)C)C[C@@H](O)[C@H](Cc2ccccc2)NC(=O)O[C@H]2CO[C@H]3OCC[C@H]32)cc1	IIIB	MT-2	-	M200I	p24 / ELISA	0.008 µM
CN[C@H]1CO[C@@H]2OCC[C@H](OC(=O)N[C@@H](Cc3cccc(OC)c3)[C@H](O)CN(CC(C)C)S(=O)(=O)c3ccc4nc(NC(C)C)sc4c3)[C@@H]21	NL4-3	MT-4	-	L10I M46L I54V V82A	p24 / luminescence	0.0087 µM
Cn1c2ccccc2c2c1cc(C#N)c(=O)n2-c1ccc([N+](=O)[O-])cc1	Recombinant	HeLa	-	RT-M41L S68N G112S M184V	luciferase	1.65 µM
CCc1c(C(=O)c2cc(C)cc(C)c2)n(CC2CC=CC2)c(=O)[nH]c1=O	NL4-3	CEM + CEM-SS	-	-	cytopathic effect / XTT	0.002 µM
C#C[C@]1(CO)O[C@@H](n2cnc3c(N)nc(F)nc32)C[C@@H]1O	Clinical isolate	MT4-GFP	-	L741I	fluorescence	0.00097 µM
CCC(=O)c1ccc(F)c([C@@H]2C[C@@H]2NC(=O)Nc2ccc(C#N)cn2)c1O	96USNG31	PBMC	-	-	absorbance	0.0011 µM
Cc1ccnc2c1NC(=O)c1cccnc1N2C1CC1	HXB2	HT4 + HT4 LacZ-1	-	RT-L74V	plaque count	0.05 µM
S=C(NCCc1cccs1)Nc1ccc(Br)cn1	M558-2 Clinical isolate NRTI-resistant	HT4 + HeLa	-	RT-M41L T215N	plaque count	0.074 µM
Cc1cc(C#N)cc(C)c1Oc1nc(Nc2ccc(C#N)cc2)nc(N)c1Br	NL4-3	PBMC	-	-	absorbance	0.0006 µM
CCn1nc(Cc2cccnc2)cc1C1CCN(C[C@H]2CN([C@@H](C(=O)O)C3CCCCC3)C[C@@H]2c2cccc(F)c2)CC1	BaL	HeLa	-	-	β-galactosidase	<0.0004 µM

Repeating the final 7 entries:

smiles,strain,cells,conditions,changes,method,result
CCc1c(C(=O)c2cc(C)cc(C)c2)n(CC2CC=CC2)c(=O)[nH]c1=O,NL4-3,CEM + CEM-SS,-,-,cytopathic effect / XTT,0.002 µM
C#C[C@]1(CO)O[C@@H](n2cnc3c(N)nc(F)nc32)C[C@@H]1O,Clinical isolate,MT4-GFP,-,L741I,fluorescence,0.00097 µM
CCC(=O)c1ccc(F)c([C@@H]2C[C@@H]2NC(=O)Nc2ccc(C#N)cn2)c1O,96USNG31,PBMC,-,-,absorbance,0.0011 µM
Cc1ccnc2c1NC(=O)c1cccnc1N2C1CC1,HXB2,HT4 + HT4 LacZ-1,-,RT-L74V,plaque count,0.05 µM
S=C(NCCc1cccs1)Nc1ccc(Br)cn1,M558-2 Clinical isolate NRTI-resistant,HT4 + HeLa,-,RT-M41L T215N,plaque count,0.074 µM
Cc1cc(C#N)cc(C)c1Oc1nc(Nc2ccc(C#N)cc2)nc(N)c1Br,NL4-3,PBMC,-,-,absorbance,0.0006 µM
CCn1nc(Cc2cccnc2)cc1C1CCN(C[C@H]2CN([C@@H](C(=O)O)C3CCCCC3)C[C@@H]2c2cccc(F)c2)CC1,BaL,HeLa,-,-,β-galactosidase,<0.0004 µM

Blank or dashed fields: not listed here. ECn: concentration that inhibits the pathogen or its effect by n%.